Data as given in PMC4718804 (eLife, 2015).

Biological target: NPC1(P691S) (Homo sapiens, UniProt O15118, P691S)
Experiment: UV crosslinking of U-X to transfected NPC1(P691S) in 10-3 cells
Conditions: 10-3 cells expressing the P691S mutant, 0.3 µM U-X

C#CCOc1ccc(C(=O)c2ccc(C(=O)OCCN(CC)CCOC3CCC4(C)C(=CCC5C6CCC(=O)C6(C)CCC54)C3)cc2)cc1 (stereo not shown) [U-X]
fluorescent NPC1 after UV crosslinking of U-X: not detected
